In assay [1] the test system is E. coli ΔtolC. Particulars: small panel, Tables 1a/1b; no visual growth after approx. 16 h.
Assay [2] has as its system E. coli WT-3 [gyrA(S83L,D87G)]. The following applies: fluoroquinolone-resistant mutant; Table 2a.
Assay [3] relates to P. aeruginosa ΔmexAB. The following applies: efflux-deficient strain; small panel, Tables 1a/1b.
Assay [4] has as its system E. cloacae DSM-30054. Nature of the assay: MIC, microbroth dilution susceptibility assay. In kind it is cell-based. Particulars: large panel, Table 2a. A general note: In broth dilution the organism is exposed to a series of concentrations in liquid medium.
The subject of assay [5] is P. vulgaris DSM-2140. Kind of assay: MIC, microbroth dilution susceptibility assay. In kind it is cell-based. Particulars: large panel, Table 2a.
The test system of assay [6] is C. freundii DSM-30039. Kind of assay: MIC, microbroth dilution susceptibility assay. In kind it is cell-based. Particulars: large panel, Table 2a.
Assay [7] concerns S. marcescens DSM-30121. Kind of assay: MIC, microbroth dilution susceptibility assay. The following applies: large panel, Table 2a. It is filed as cell-based.
Assay [8] deals with A. baumannii DSM-30008. Kind of assay: MIC, microbroth dilution susceptibility assay. In kind it is cell-based. Particulars: large panel, Table 2a.
The subject of assay [9] is S. aureus ATCC-29213. Kind of assay: MIC, microbroth dilution susceptibility assay. Particulars: large panel, Table 2a. It is filed as cell-based.
The subject of assay [10] is K. pneumoniae DSM-30104. Nature of the assay: MIC, microbroth dilution susceptibility assay. It is filed as cell-based. The following applies: large panel, Table 2a.
Assay [11] concerns E. faecalis ATCC-29212. Nature of the assay: MIC, microbroth dilution susceptibility assay. It is filed as cell-based. Particulars: large panel, Table 2a; TSB.
In assay [12] the test system is P. mirabilis DSM-2140. Nature of the assay: MIC, microbroth dilution susceptibility assay. In kind it is cell-based. Particulars: large panel, Table 2a.
The subject of assay [13] is P. aeruginosa DSM-24600. Nature of the assay: MIC, microbroth dilution susceptibility assay. In kind it is cell-based. Particulars: large panel, Table 2a.
The subject of assay [14] is S. epidermidis DSM-28765. Nature of the assay: MIC, microbroth dilution susceptibility assay. It is filed as cell-based. The following applies: large panel, Table 2a.
Assay [15] relates to S. aureus Newman. Kind of assay: MIC, microbroth dilution susceptibility assay. It is filed as cell-based. Particulars: small panel, Tables 1a/1b.
In assay [16] the test system is E. coli WT. Kind of assay: MIC, microbroth dilution susceptibility assay. Particulars: large panel, Table 2a. It is filed as cell-based.
Assay [17] relates to P. aeruginosa DSM-46316. Nature of the assay: MIC, microbroth dilution susceptibility assay. It is filed as cell-based. Particulars: large panel, Table 2a.
The test system of assay [18] is S. pneumoniae DSM-20566. Kind of assay: MIC, microbroth dilution susceptibility assay. In kind it is cell-based. Particulars: large panel, Table 2a; TSB.
Assay [19] relates to P. aeruginosa WT PA14. Kind of assay: MIC, microbroth dilution susceptibility assay. In kind it is cell-based. The following applies: small panel, Tables 1a/1b.
Assay [20] relates to E. aerogenes DSM-30053. Nature of the assay: MIC, microbroth dilution susceptibility assay. In kind it is cell-based. Particulars: large panel, Table 2a.
The test system of assay [21] is E. coli WT DSM-1116. Nature of the assay: MIC, microbroth dilution susceptibility assay. It is filed as cell-based. Particulars: small panel, Tables 1a/1b; no visual growth after approx. 16 h.

In brackets after ≈: the same amount, converted by molar mass.

Consider `COC(C(N)=O)C(NC(=O)c1ccc(NC(=O)c2ccc([N+](=O)[O-])cc2)cc1)C(=O)Nc1ccc(C(=O)Nc2ccc(C(=O)Nc3ccc(C(=O)O)cc3OC(C)C)c(O)c2OC(C)C)cc1` (stereo not drawn), for which the “MIC E. coli ΔtolC” value in assay [1] was 0.25 µg/mL (≈ 0.272 µM). In assay [2], the “MIC E. coli WT-3 [gyrA(S83L,D87G)]” value is 64 µg/mL (≈ 69.6 µM). Moreover, the “MIC P. aeruginosa ΔmexAB” value in assay [3] stood at 4 µg/mL (≈ 4.35 µM). Besides, the “MIC E. cloacae DSM-30054” value in assay [4] is greater than 64 µg/mL. In addition, the “MIC P. vulgaris DSM-2140” value in [5] was 4 µg/mL (≈ 4.35 µM). Further, in assay [6], the “MIC C. freundii DSM-30039” value turned out to be 1 µg/mL (≈ 1.09 µM). Moreover, in [7], the “MIC S. marcescens DSM-30121” value was greater than 64 µg/mL. Moreover, the “MIC A. baumannii DSM-30008” value in [8] amounted to 8 µg/mL (≈ 8.7 µM). For the same molecule, the “MIC S. aureus ATCC-29213” value in [9] worked out at 0.1 µg/mL (≈ 0.109 µM). In assay [10], the “MIC K. pneumoniae DSM-30104” value is greater than 64 µg/mL. Further, in [11], the “MIC E. faecalis ATCC-29212” value worked out at 0.1 µg/mL (≈ 0.109 µM). In assay [12], the “MIC P. mirabilis DSM-2140” value was greater than 64 µg/mL. Also, the “MIC P. aeruginosa DSM-24600” value in [13] came to 64 µg/mL (≈ 69.6 µM). In addition, the “MIC S. epidermidis DSM-28765” value in [14] stood at 0.25 µg/mL (≈ 0.272 µM). Moreover, in assay [15], the “MIC S. aureus Newman” value came out at 0.25 µg/mL (≈ 0.272 µM). Further, in assay [16], the “MIC E. coli WT” value was determined as 0.5 µg/mL (≈ 0.544 µM). In assay [17], the “MIC P. aeruginosa DSM-46316” value is 64 µg/mL (≈ 69.6 µM). In addition, in assay [18], the “MIC S. pneumoniae DSM-20566” value worked out at 0.13 µg/mL (≈ 0.141 µM). The “MIC P. aeruginosa WT PA14” value in [19] was greater than 64 µg/mL. For the same molecule, in [20], the “MIC E. aerogenes DSM-30053” value is greater than 64 µg/mL. The “MIC E. coli WT DSM-1116” value in assay [21] turned out to be 0.5 µg/mL (≈ 0.544 µM).

Values taken from patent US11034648B2, “Cystobactamide derivatives” (priority 2017, dated 2021).
